The target of this test is Andes hantavirus (ANDV) Gc envelope glycoprotein (Andes hantavirus (ANDV) isolate CHI-7913). The test is described as follows: sucrose gradient sedimentation.

The values that follow come from paper PMC4945073, “Inhibition of the Hantavirus Fusion Process by Predicted Domain III and Stem Peptides from Glycoprotein Gc” (2016).

A word on the stoichiometry N: it is a count of units in the complex or per binding partner. With “Andes hantavirus (ANDV) Gc envelope glycoprotein (natural protein)”, the stoichiometry N amounted to 3.
